A mixed list of measured activities; the numbers were collected in NIAID ChemDB.

Shared fields: target-level tests; species: HIV-1; target: Protease; measure: inhibition

Percent inhibition refers to the dose given; in toxicity tests it is the harm to the cells. An empty or dashed field is not shown. Rows are shuffled and stem from different studies.

SMILES	dose	strain	method	value
CC(C)(C)NC(=O)[C@@H]1CSCN1C(=O)[C@@H](O)[C@H](Cc1ccccc1)NC(=O)CCC(=O)O	5 µM			73.7%
CC(C)(C)OC(=O)N[C@H]1CCCCNC(=O)CCC(=O)NCCCC[C@@H](C(N)=O)NC(=O)[C@H](Cc2ccccc2)NC(=O)C[C@H](Cc2ccccc2)NC1=O	10 µM			3%
O=C1OC(CCCc2ccccc2)(Cc2ccccc2)C(O)=C1C(c1ccccc1)C1CC1	3.3 µM		fluorescence	100%
CC(C)C[C@H](NC(=O)C[C@@H]1CC[C@@H](O)[C@@H]1NC(=O)[C@H](Cc1ccccc1)NC(=O)[C@@H](NC(=O)OCc1ccccc1)C(C)C)C(=O)NC(C)(C)C	10 µM		absorbance	37%
Cc1cc(C)[n+](C[n+]2[nH]c(C)cc2C)[nH]1.[Cl-].[Cl][Au-]([Cl])([Cl])[Cl]	25 µM		substrate cleavage	14.7%
COc1ccc(C2C3(CO)C4N(C(=O)OC(C)(C)C)C5C2(CO)C2N(C(=O)OC(C)(C)C)C3C4(CO)C(c3ccc(OC)cc3)C52CO)cc1	50 µM		absorbance	32%
COc1cc(O)cc(O)c1C(=O)/C=C/c1ccc(O)cc1	100 µM		HPLC	14.1%
CC(=O)N[C@@H](CSC(=O)[C@]1([C@@H](O)CC(C)C)NC(=O)[C@H](C)[C@@H]1O)C(=O)O	100 µM			0%
CC(C)C(CC(=O)N[C@@H](Cc1ccccc1)[C@H](O)C(=O)N1CSC[C@H]1C(=O)NC(C)(C)C)C(=O)O	5 µM			18.4%
O=C(Cc1ccccc1)N1C2C3(CO)C(c4ccccc4)C4(CO)C1C1(CO)C(c5ccccc5)C2(CO)C3N(C(=O)Cc2ccccc2)C41	50 µM		absorbance	52%
CC(C[C@@H](O)[C@H](O)C(C)(C)O)[C@@H]1CC[C@]2(C)C3=CCC4C(C)(C)C(=O)C(O)=C[C@]4(C)C3CC[C@@]12C	100 µg/mL		substrate cleavage / fluorescence	41.4%
COC(=O)[C@@H](NC(=O)C[C@@H]1CC[C@@H](O)[C@@H]1NC(=O)[C@H](Cc1ccccc1)NC(=O)OC(C)(C)C)C(C)C	10 µM		absorbance	25%
CCOC(=O)c1cn(CC(O)CNc2ccc(C)cc2)cc1-c1ccccc1	200 µM			27%
CC(C)(C)NC(=O)[C@@H]1CCCN1C(=O)[C@@H](O)[C@H](CC1CCCCC1)NC(=O)[C@H](CS(C)(=O)=O)NC(=O)OCc1cccc2ccccc12	5 µM			98.5%
CC(C)(C)NC(=O)[C@H]1N(C(=O)[C@@H](O)[C@H](Cc2ccccc2)NC(=O)c2ccccc2C(=O)NCc2ccccn2)CSC1(C)C	5 µM		HPLC	25.7%
CC(C)(C)OC(=O)N[C@H]1CC(=O)NCCNC(=O)C[C@@H](C(N)=O)NC(=O)[C@H](Cc2ccccc2)NCC(O)[C@H](Cc2ccccc2)NC1=O	10 µM			18%
CC(=O)O[C@H](CC(C)[C@@H]1CC[C@]2(C)C3=CCC4C(C)(C)C(=O)CC[C@]4(C)C3CC[C@@]12C)[C@H](OC(C)=O)C(C)(C)O	100 µg/mL		substrate cleavage / fluorescence	41.2%
CCOC(=O)c1cn(CC(O)CNc2cccc(N)c2)cc1-c1ccccc1	200 µM			22%
CO[C@@H]([C@@H](CC(C)[C@@H]1CC[C@]2(C)C3=CCC4C(C)(C)C(OC(=O)CC(C)(C)C(=O)O)CC[C@]4(C)C3CC[C@@]12C)OC(C)(C)C)C(C)(C)O	100 µg/mL		substrate cleavage / fluorescence	58.1%
CC[C@H](C)[C@H](NC(=O)C[C@H](O)[C@H](Cc1ccccc1)NC(=O)OC(C)(C)C)C(=O)N[C@@H](Cc1ccccc1)C(=O)OC	10 µM			71%
COc1ccc(C2C3(CO)C4N(C(=O)Cc5ccccc5)C5C2(CO)C2N(C(=O)Cc6ccccc6)C3C4(CO)C(c3ccc(OC)cc3)C52CO)cc1	50 µM		absorbance	18%
CC(C)(C)N(Cc1ccccc1)C(=O)NCC(O)CNC(=O)N(Cc1ccccc1)C(C)(C)C	50 µM			17.5%
CC(=O)N1C[C@@H](O)[C@@H](Cc2ccccc2)N(Cc2ccc(O)cc2)C(=O)N1Cc1ccc(O)cc1	0.0005 µM		fluorescence	60%
COc1c(O)cc(O)c2c1OC(c1ccccc1)CC2=O	1000 µg/mL		substrate cleavage / fluorescence	64.8%
CC(C)(C)NC(=O)[C@@H]1Cc2ccccc2CN1C(=O)[C@@H](O)[C@H](Cc1ccccc1)NC(=O)[C@H](CC(N)=O)NC(=O)OCc1ccccc1	0.05 µM			10.8%
COC(=O)N1C2C3(CO)C(c4ccccc4)C4(CO)C1C1(CO)C(c5ccccc5)C2(CO)C3N(C(=O)OC)C41	50 µM		absorbance	9%
CC(C)(C)NC(=O)[C@H]1N(C(=O)[C@@H](O)[C@H](Cc2ccccc2)NC(=O)c2ccccc2C(=O)NCc2ccncc2)CSC1(C)C	5 µM		HPLC	8%
CC[C@H](C)[C@H](NC(=O)OC(C)(C)C)C(=O)N[C@H]1[C@@H](CC(=O)N[C@@H](CC(C)C)C(=O)OC)CC[C@@H]1O	10 µM		absorbance	8%
O=C(O)[C@@H]1O[C@@H](Oc2cc3oc(-c4ccccc4)cc(=O)c3c(O)c2O)[C@@H](O)[C@H](O)[C@H]1O	1000 µg/mL		substrate cleavage / fluorescence	53.5%
COC(=O)[C@@H](NC(=O)C[C@@H]1CC[C@H](NC(=O)[C@H](C)NC(=O)OC(C)(C)C)[C@H]1O)C(C)C	10 µM		absorbance	0%
CC(C)CCN(C[C@@H](O)[C@H](Cc1ccccc1)NC(=O)OCc1ccccc1)S(=O)(=O)C(F)(F)F	10 µM			76%
Cc1ccccc1CNC(=O)[C@H]1N(C(=O)[C@@H](O)[C@H](Cc2ccccc2)NC(=O)c2ccccc2NC(=O)OCc2ccccc2)CSC1(C)C	5 µM		HPLC	98.3%
COC(=O)[C@@H](NC(=O)C[C@H]1CC[C@H](O)[C@H]1NC(=O)[C@H](Cc1ccccc1)NC(=O)OC(C)(C)C)C(C)C	10 µM		absorbance	27%
Cc1c(O)cccc1C(=O)N[C@@H](Cc1ccccc1)[C@H](O)C(=O)N1CSC(C)(C)[C@H]1C(=O)NCCN1CCOCC1	0.064 µM	NL4-3	fluorescence	13%
CCOC(=O)c1cn(CC(O)CNc2ccccc2C)cc1-c1ccccc1	200 µM			32%
CC[C@H](C)[C@H](NC(=O)[C@H](Cc1ccccc1)NCC(O)[C@H](Cc1ccccc1)NC(=O)OCc1ccccc1)C(=O)N[C@@H](Cc1ccccc1)C(=O)OC	10 µM			67%
CCOC(=O)c1cn(CC(O)CSc2ccccc2C(=O)NC(C)(C)C)cc1-c1ccccc1	200 µM			29%
CC[C@@H](C)[C@H](NC(=O)[C@@H]1CCCN1C(=O)[C@@H](O)[C@H](CC1CCCCC1)NC(=O)[C@H](CC(N)=O)NC(=O)c1cccs1)C(=O)N[C@H](C(N)=O)C(C)C	5 µM			95.1%
CC(C[C@@H](O)[C@H](O)C(C)(C)O)[C@@H]1CC[C@]2(C)C3=CCC(C(C)(C)C(=O)O)[C@](C)(CC(=O)O)C3CC[C@@]12C	100 µg/mL		substrate cleavage / fluorescence	67.4%
COC(=O)[C@H](CC(C)C)NC(=O)C[C@@H]1CC[C@H](NC(=O)[C@H](Cc2ccccc2)NC(=O)OC(C)(C)C)[C@H]1O	10 µM		absorbance	38%
COc1cc(O)cc(O)c1C(=O)[C@@H]1[C@H](CC=C(C)C)C(C)=CC[C@H]1c1ccc(O)cc1	100 µM		HPLC	43.1%
CC(C)(C)NC(=O)[C@H]1N(C(=O)[C@@H](O)[C@H](Cc2ccccc2)NC(=O)c2ccccc2NC(=O)OCc2ccccc2)CSC1(C)C	5 µM		HPLC	89.9%
CCOC(=O)c1ccn(CC(O)CNc2ccccc2)c1	200 µM			21%
O=C1OC(CCCc2ccccc2)(CC2CC2)C(O)=C1C(c1ccccc1)C1CC1	0.37 µM		fluorescence	100%
CC[C@H](C)[C@H](NC(=O)OC(C)(C)C)C(=O)N[C@@H]1CC[C@H](CC(=O)N[C@H](C(=O)OC)C(C)C)[C@H]1O	10 µM		absorbance	21%
Cc1ccccc1CNC(=O)[C@H]1N(C(=O)[C@@H](O)[C@H](Cc2ccccc2)NC(=O)c2ccccc2C(=O)NCc2ccncc2)CSC1(C)C	5 µM		HPLC	64.8%
CC(C)C[C@@H](CC[C@@H](Cc1ccccc1)C(=O)N[C@H](C(=O)N[C@H](C(N)=O)C(C)C)C(C)C)NC(=O)[C@@H](NC(=O)[C@@H](N)C(C)C)C(C)C	10 µM			40%
CCCCC1(CCCC)OC(=O)C(C(c2ccccc2)C2CC2)=C1O	3.3 µM		fluorescence	100%
CC(C)(C)NC(=O)[C@H]1N(C(=O)[C@@H](O)[C@H](Cc2ccccc2)NC(=O)[C@H](CS(C)(=O)=O)NC(=O)COc2cccc3ccccc23)CCC1(C)C	0.05 µM			95.7%
CCCC1(CCc2ccccc2)OC(=O)C(C(c2ccccc2)C2CC2)=C1O	3.3 µM		fluorescence	100%
CC(C)(C)NC(=O)[C@H]1N(C(=O)[C@@H](O)[C@H](Cc2ccccc2)NC(=O)CC(C)(C)C(=O)O)CSC1(C)C	0.05 µM			76.3%
CC[C@H](C)[C@H](NC(=O)OC(C)(C)C)C(=O)N[C@@H]1[C@H](CC(=O)N[C@@H](CC(C)C)C(=O)OC)CC[C@H]1O	10 µM		absorbance	18%
CC[C@@H](C)[C@H](NC(=O)[C@@H]1CCCN1C(=O)[C@@H](O)[C@H](CC1CCCCC1)NC(=O)[C@H](CC(N)=O)NC(=O)[C@H]1Cc2ccccc2CN1)C(=O)N[C@H](C(N)=O)C(C)C	5 µM			71%
COC(=O)[C@@H](NC(=O)C[C@H]1CC[C@@H](NC(=O)[C@H](Cc2ccccc2)NC(=O)OC(C)(C)C)[C@@H]1O)C(C)C	10 µM		absorbance	8%
COc1cc(O)cc(O)c1C(=O)/C=C/c1ccccc1	100 µM		HPLC	47.6%
CC(C)(C)NC(=O)N(Cc1ccccc1)CC(O)CN(Cc1ccccc1)C(=O)NC(C)(C)C	10 µM			50%
CC(C)(C)NC(=O)[C@@H]1CSCN1C(=O)[C@@H](O)[C@H](Cc1ccccc1)NC(=O)CCC(C)(C)C(=O)O	5 µM			55%
CC(C)(C)OC(=O)NC(=O)N(Cc1ccccc1)CC(O)CN(Cc1ccccc1)C(=O)NC(=O)OC(C)(C)C	10 µM			28%
CC(C)(C)OC(=O)N1C2C3(CO)C(c4ccccc4)C4(CO)C1C1(CO)C(c5ccccc5)C2(CO)C3N(C(=O)OC(C)(C)C)C41	25 µM		absorbance	49%
CC[C@H](NC(=O)[C@@H](NC(=O)[C@H](Cc1c[nH]c2ccccc12)NC(=O)OCc1ccccc1)C(C)C)[C@@H](O)CC(=O)N[C@@H](C)C(=O)NC(CC(C)C)[C@@H](O)CC(=O)OC	1 µM		fluorescence	0%
CC[C@H](C)[C@H](NC(=O)[C@H](Cc1ccccc1)NC[C@H](Cc1ccccc1)NC(=O)OC(C)(C)C)C(=O)N[C@@H](Cc1ccccc1)C(=O)OC	10 µM			22%
CCOC(=O)c1cn(CC(O)CNc2ccccc2Cl)cc1-c1ccccc1	200 µM			39%
O=C(CCCO)N1C[C@@H](O)[C@@H](Cc2ccccc2)N(Cc2ccc(O)cc2)C(=O)N1Cc1ccc(O)cc1	0.0005 µM		fluorescence	41%